Results of unrelated studies side by side (data: NIAID ChemDB).

All rows: host cell toxicity; cell line: VERO; read-out: CC50

CCn: concentration that lowers growth or viability of the cells by n%. Neighbouring rows are from separate reports.

structure | result
Cc1cn([C@@H]2O[C@H](CO)[C@@H](O)[C@@H]2F)c(=O)[nH]c1=O | 240 µM
CC(=O)OC[C@H]1O[C@@H](n2ncc(=S)[nH]c2=S)C(OC(C)=O)C1OC(C)=O | 500 µg/mL
CC[C@@H](C(C)C)[C@@H](O)[C@H](O)[C@@H](C)[C@H]1CC[C@H]2[C@@H]3CC(=O)[C@@]4(O)C[C@H](O)[C@H](O)C[C@]4(C)[C@H]3CC[C@]12C | 40 µM
CC(C)[C@H](NC(=O)OCc1ccccc1)C(=O)NC(CC(=O)O)C(=O)CF | >100 µM
Nc1nc(=O)n([C@@H]2C=C(CO)[C@@H](O)[C@H]2O)cc1F | >100 µg/mL
CCC(C)[C@H](NC(=O)OCc1ccccc1)C(=O)NC(CCC(=O)N(C)C)C(=O)CF | >100 µM
O=S1(=O)C[C@H](O)[C@H](O)CS1 | >400 µM
Nc1ccn(C[C@@H](CO)OCP(=O)(O)O)c(=O)n1 | >100 µg/mL
CC1(C)OC2C(O1)[C@@H](COS(=O)(=O)NC(=O)OC1O[C@H](COCc3ccccc3)[C@@H](OCc3ccccc3)[C@H](OCc3ccccc3)[C@H]1OCc1ccccc1)O[C@H]2n1ncc(=O)[nH]c1=O | >319 µg/mL
CC(C)(C)C(=O)OCOP(=O)(COCCn1cnc2c(N)ncnc21)OCOC(=O)C(C)(C)C | >100 µg/mL
CC[C@@H](C(C)C)[C@H](O)[C@@H](O)[C@@H](C)[C@H]1CC[C@H]2[C@@H]3CC(=O)[C@@]4(O)C[C@@H](OC(C)=O)CC[C@]4(C)[C@H]3CC[C@]12C | 461 µM
O=c1cnn([C@@H]2O[C@H](CO)[C@@H](O)[C@H]2O)c(=S)[nH]1 | >100 µg/mL
CC[C@@H](C(C)C)[C@@H](O)[C@H](O)[C@@H](C)[C@H]1CC[C@H]2[C@@H]3CC(=O)[C@H]4C[C@@H](Br)CC[C@]4(C)[C@H]3CC[C@]12C | 248 µM
Cc1cn([C@@H]2O[C@H](CO)[C@@H](O)[C@@H]2O)c(=O)[nH]c1=O | >1000 µM
NC(=O)c1[nH]nc([C@@H]2O[C@H](CO)[C@@H](O)[C@H]2O)c1O | 3 µg/mL
NC(=O)c1csc([C@@H]2O[C@H](CO)[C@@H](O)[C@H]2O)n1 | 90 µg/mL
CC[C@@H](C(C)C)[C@@H](O)[C@H](O)[C@@H](C)[C@H]1CC[C@H]2[C@@H]3CC(=O)[C@@]4(O)C[C@@H](Br)CC[C@]4(C)[C@H]3CC[C@]12C | 23 µM
CC(=O)OC[C@H]1O[C@@H](n2ncc(=O)[nH]c2=O)[C@H](OC(C)=O)[C@@H]1OC(C)=O | 42 µg/mL
CN[C@H](CC(C)C)C(=O)N[C@H]1C(=O)N[C@@H](CC(N)=O)C(=O)N[C@H]2C(=O)N[C@H]3C(=O)N[C@H](C(=O)N[C@H](C(=O)O)c4cc(O)cc(O)c4-c4cc3ccc4O)[C@H](O)c3ccc(c(Cl)c3)Oc3cc2cc(c3O[C@@H]2O[C@H](CO)[C@@H](O)[C@H](O)[C@H]2O[C@H]2C[C@](C)(N)[C@H](O)[C@H](C)O2)Oc2ccc(cc2Cl)[C@H]1O | >100 µM
O=c1[nH]c(=O)n([C@@H]2O[C@H](CO)[C@@H](O)[C@@H]2F)cc1I | 400 µM
Nc1nccc2c1ncn2[C@@H]1C=C(CO)[C@@H](O)[C@H]1O | 0.3 µg/mL
CC[C@@H](C(C)C)[C@@H](O)[C@H](O)[C@@H](C)[C@H]1CC[C@H]2[C@@H]3CC(=O)[C@H]4C[C@@H](OC(C)=O)CC[C@]4(C)[C@H]3CC[C@]12C | 238 µM
Nc1ccn(C[C@H]2COP(=O)(O)CO2)c(=O)n1 | 80 µg/mL
NC(N)=Nc1ccccc1SSc1ccccc1N=C(N)N | 94.4 µM
Nc1ncnc2c1nc(Cl)n2[C@@H]1O[C@H](CO)[C@@H](O)[C@H]1O | 18 µM
Nc1ncnc2c1ncn2C[C@@H](CO)OCP(=O)(O)O | >100 µg/mL
Nc1ccn(C[C@@H](CO)OCP(=O)(O)O)c(=O)n1 | >1000 µM
CC[C@@H](C(C)C)[C@H](O)[C@@H](O)[C@@H](C)[C@H]1CC[C@H]2[C@@H]3CC(=O)[C@H]4C[C@H](O)[C@H](O)C[C@]4(C)[C@H]3CC[C@]12C | 376 µM

Again, the opening 2 rows:

structure,result
Cc1cn([C@@H]2O[C@H](CO)[C@@H](O)[C@@H]2F)c(=O)[nH]c1=O,240 µM
CC(=O)OC[C@H]1O[C@@H](n2ncc(=S)[nH]c2=S)C(OC(C)=O)C1OC(C)=O,500 µg/mL